Test [1] addresses ToxA:1800-1945 (six-repeat N-terminal part of the toxin A CWB domain) (Clostridium difficile, UniProt P16154 1800-1945).
Test [2] deals with ToxA:2078-2234 (seven-repeat central part of the toxin A CWB domain) (Clostridium difficile, UniProt P16154 2078-2234).

B1: Antibody 227 (or 3359), murine monoclonal anti-toxin A antibody (antibody, V domains shown)
VH: EVQLVESGGGLMKPGGSLKLSCAASGFAFGSYDMSWVRQTPEKRLEWVAYISSGGGITFYPDSVRGRFTISRDNAKNSLYMEMSSLRSEDTAMYYCARWDWDLFAYWGQGTLVTVSA
VL: DIKMTQSPSSMYTSLGERVTITCKASQDINSCLSWFQQKPGKSPKALIFRANILVDGVPSRFSGSGSGQDYSLTISSLEYEDLGIYYCLQYDEFPWTFGGGTRLEIK
As for B1, the Kd in test [1] is 0.1 µM; in test [2] it was 0.013 µM.

B2: Antibody 3358 (or 543), murine monoclonal anti-toxin A antibody (antibody, V domains shown)
VH: QVQLQQPGAELVKPGASVRLSCKAGGYTFTSYWLHWVKQRPGQGLEWIGMIHPNSGSYDYSETFRTKATLTVDKSSDTAYMQLTSLTSEDSAVYYCARGGSNYDIFAYWGQGTTLTVSS
VL: NIVMTQSPKSMSMSVGERVTFNCRASENVGTYVFWYQQKPEQSPRLLIYGASNRYTGVPDRFTGSGSATDFTLTISGVQAEDLADYHCGQSYRHLTFGGGTKLEIK
As for B2, the equilibrium dissociation constant (Kd) was found to be 0.0006 µM in test [1] and 0.0034 µM in test [2].

B3: rPBA-3, chimeric recombinant form of anti-toxin A monoclonal antibody PBA-3 (wildtype, plasmids BD12584 heavy and BD12585 light) (antibody, V domains shown)
VH: QVQLQQSGPELVKPGASVRISCKASGFTFTSYHVNWVKQRPGQGLEWIGWIYPGNVNTEYNEKFKGKATLTADKSSSTAYMQLSSLTSEDSAVYFCASHEYYGSDWYFDVWGAGTTVTVSS
VL: DAVMTQTPLSLPVSLGDQASISCRSSQSLENRNGNTYLNWYLQKPGQSPQLLIYRVSNRFSGVLDRFSGSGSGTDFTLKISRVEAEDLGVYFCLQVTHVPYTFGGGTKLEIK
For the molecule B3, the affinity in test [2], expressed as Kd, was 0.055 µM.

Usually Kd stands for the free concentration of one partner at which half of the binding sites on the other are occupied at equilibrium, for simple one-to-one binding. High values mean lower affinity, low ones higher affinity.

For the origin of these results see patent publication US20090087478A1 (PROGENICS PHARMACEUTICALS NEVADA, published 2009).
